PubChem BioAssay AID1259414, Drosophila RNAi Screening Center | 2018
The deposit covers about 24,000 reagents; below is an unselected part of those that have a named target and a result. Over the whole deposit, about 1,210 (5%) are marked active. 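Inactive calls also include excluded dsRNAs with several or no targets, genes unexpressed in JW18, and well A1, regardless of score.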

Purpose: 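Host factors increasing or decreasing Wolbachia levels in cultured fly cells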 (primary screen)
Cells: Drosophila JW18 cells infected with Wolbachia
Knock-down reagent: long dsRNA against Drosophila genes, 0.25 µg dsRNA per well of a 384-well plate
Time to read-out: 5 days
Challenge: cells persistently infected with Wolbachia before knock-down; no added drug
Measurement: 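Automated imaging of bacterial rRNA staining divided by host cell count, reported as plate-normalised robust z-score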
Reading the numbers: Wolbachia per cell robust z: higher = more Wolbachia per host cell than the plate typical
Rule for the call: 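Active if absolute robust z reaches 1.5 in two or more of three replicates, leaving out multi- or no-target dsRNAs, genes unexpressed in JW18 and A1 wells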

obst-I (obstructor-I) [DRSC08339]: Wolbachia per cell robust z, rep 1 = 1.1; Wolbachia per cell robust z, rep 2 = 0.12; Wolbachia per cell robust z, rep 3 = 0.798; Call = inactive
CG34330 [DRSC20043]: Wolbachia per cell robust z, rep 1 = 0.487; Wolbachia per cell robust z, rep 2 = 0.56; Wolbachia per cell robust z, rep 3 = 1.03; Call = inactive
CG34330 [DRSC29637]: Wolbachia per cell robust z, rep 1 = -1; Wolbachia per cell robust z, rep 2 = -0.594; Wolbachia per cell robust z, rep 3 = -0.095; Call = inactive
Ir84a (Ionotropic receptor 84a) [DRSC12510]: Wolbachia per cell robust z, rep 1 = 0.246; Wolbachia per cell robust z, rep 2 = 0.0879; Wolbachia per cell robust z, rep 3 = 0.272; Call = inactive
Ir84a (Ionotropic receptor 84a) [DRSC27487]: Wolbachia per cell robust z, rep 1 = 0.266; Wolbachia per cell robust z, rep 2 = 0.361; Wolbachia per cell robust z, rep 3 = -0.296; Call = inactive
CG34432 [DRSC38678]: Wolbachia per cell robust z, rep 1 = 0.521; Wolbachia per cell robust z, rep 2 = -0.221; Wolbachia per cell robust z, rep 3 = -0.482; Call = inactive
tw (twisted) [DRSC18537]: Wolbachia per cell robust z, rep 1 = -0.844; Wolbachia per cell robust z, rep 2 = -0.875; Wolbachia per cell robust z, rep 3 = 0.417; Call = inactive
CG32695 [DRSC17975]: Wolbachia per cell robust z, rep 1 = 0.825; Wolbachia per cell robust z, rep 2 = 0.529; Wolbachia per cell robust z, rep 3 = 0.944; Call = inactive
Drak (Death-associated protein kinase related) [DRSC19778]: Wolbachia per cell robust z, rep 1 = 1.29; Wolbachia per cell robust z, rep 2 = -0.529; Wolbachia per cell robust z, rep 3 = -1.99; Call = inactive
Drak (Death-associated protein kinase related) [DRSC23298]: Wolbachia per cell robust z, rep 1 = 0.179; Wolbachia per cell robust z, rep 2 = 0.372; Wolbachia per cell robust z, rep 3 = -1.06; Call = inactive
Drak (Death-associated protein kinase related) [DRSC28871]: Wolbachia per cell robust z, rep 1 = -1.26; Wolbachia per cell robust z, rep 2 = 0.0099; Wolbachia per cell robust z, rep 3 = 0.577; Call = inactive
CG10376 [DRSC02049]: Wolbachia per cell robust z, rep 1 = 1.08; Wolbachia per cell robust z, rep 2 = 0.259; Wolbachia per cell robust z, rep 3 = -1.05; Call = inactive
CG10376 [DRSC26744]: Wolbachia per cell robust z, rep 1 = 0.658; Wolbachia per cell robust z, rep 2 = -0.954; Wolbachia per cell robust z, rep 3 = 0.0239; Call = inactive
drn (doctor no) [DRSC15148]: Wolbachia per cell robust z, rep 1 = -3.97; Wolbachia per cell robust z, rep 2 = 0.715; Wolbachia per cell robust z, rep 3 = -0.316; Call = inactive
Or59a (Odorant receptor 59a) [DRSC04631]: Wolbachia per cell robust z, rep 1 = -3.62; Wolbachia per cell robust z, rep 2 = 0.363; Wolbachia per cell robust z, rep 3 = -5.77; Call = inactive
Hsc70-3 (Heat shock protein 70 cognate 3) [DRSC20253]: Wolbachia per cell robust z, rep 1 = 0.659; Wolbachia per cell robust z, rep 2 = 0.678; Wolbachia per cell robust z, rep 3 = 1.1; Call = inactive
Hsc70-3 (Heat shock protein 70 cognate 3) [DRSC25105]: Wolbachia per cell robust z, rep 1 = 0.945; Wolbachia per cell robust z, rep 2 = 0.71; Wolbachia per cell robust z, rep 3 = 1.37; Call = inactive
Keap1 [DRSC15528]: Wolbachia per cell robust z, rep 1 = -1.1; Wolbachia per cell robust z, rep 2 = -0.254; Wolbachia per cell robust z, rep 3 = 1.14; Call = inactive
Keap1 [DRSC29209]: Wolbachia per cell robust z, rep 1 = 1.4; Wolbachia per cell robust z, rep 2 = 0.644; Wolbachia per cell robust z, rep 3 = 0.555; Call = inactive
CG3862 [DRSC00631]: Wolbachia per cell robust z, rep 1 = 0.138; Wolbachia per cell robust z, rep 2 = -1.21; Wolbachia per cell robust z, rep 3 = -0.671; Call = inactive
CG3862 [DRSC28505]: Wolbachia per cell robust z, rep 1 = 0.265; Wolbachia per cell robust z, rep 2 = -0.33; Wolbachia per cell robust z, rep 3 = -0.00208; Call = inactive
Alg3 (ALG3, alpha-1,3- mannosyltransferase) [DRSC04700]: Wolbachia per cell robust z, rep 1 = -0.572; Wolbachia per cell robust z, rep 2 = -1.11; Wolbachia per cell robust z, rep 3 = -5.19; Call = inactive
CG12860 [DRSC06200]: Wolbachia per cell robust z, rep 1 = 0.0588; Wolbachia per cell robust z, rep 2 = 0.674; Wolbachia per cell robust z, rep 3 = -2.17; Call = inactive
CG12860 [DRSC26264]: Wolbachia per cell robust z, rep 1 = 0.216; Wolbachia per cell robust z, rep 2 = -0.579; Wolbachia per cell robust z, rep 3 = 0.9; Call = inactive
BicD (Bicaudal D) [DRSC02006]: Wolbachia per cell robust z, rep 1 = -4.14; Wolbachia per cell robust z, rep 2 = 0.849; Wolbachia per cell robust z, rep 3 = 0.376; Call = inactive
CG10465 [DRSC04848]: Wolbachia per cell robust z, rep 1 = -0.113; Wolbachia per cell robust z, rep 2 = 1.1; Wolbachia per cell robust z, rep 3 = 1.03; Call = inactive
Mec2 [DRSC20054]: Wolbachia per cell robust z, rep 1 = 0.0694; Wolbachia per cell robust z, rep 2 = -0.327; Wolbachia per cell robust z, rep 3 = 0.183; Call = inactive
Mec2 [DRSC26162]: Wolbachia per cell robust z, rep 1 = -0.644; Wolbachia per cell robust z, rep 2 = -0.674; Wolbachia per cell robust z, rep 3 = -0.0292; Call = inactive
Wwox (WW domain containing oxidoreductase) [DRSC03030]: Wolbachia per cell robust z, rep 1 = 1.4; Wolbachia per cell robust z, rep 2 = 0.905; Wolbachia per cell robust z, rep 3 = 0.474; Call = inactive
Wwox (WW domain containing oxidoreductase) [DRSC22872]: Wolbachia per cell robust z, rep 1 = -5.76; Wolbachia per cell robust z, rep 2 = -2.59; Wolbachia per cell robust z, rep 3 = -3.77; Call = active
Wwox (WW domain containing oxidoreductase) [DRSC25933]: Wolbachia per cell robust z, rep 1 = -1.7; Wolbachia per cell robust z, rep 2 = -0.158; Wolbachia per cell robust z, rep 3 = -0.956; Call = inactive
